# HIV-1 NL4-3 point mutations in Vif: replication capacity

Values reported by Al-Mawsawi et al. 2014 (doi:10.1186/s12977-014-0124-6).

Protein: Vif of HIV-1 NL4-3, numbered from its first residue. The source prints no sequence; the chain below is taken from UniProt P12504, a closely related isolate, and fits the source at the 145 positions it covers.
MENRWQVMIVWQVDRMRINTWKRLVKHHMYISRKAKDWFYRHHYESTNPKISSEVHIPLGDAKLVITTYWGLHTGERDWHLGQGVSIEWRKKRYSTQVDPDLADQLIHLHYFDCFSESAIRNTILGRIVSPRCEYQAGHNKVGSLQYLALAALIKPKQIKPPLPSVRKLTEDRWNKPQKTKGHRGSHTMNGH
"Other frame" gives the effect on an overlapping gene as the source lists it; other overlaps (genes, RNA elements) are not shown.

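Seven fragments of pNL4-3 were mutated by error-prone PCR, and each virus pool was passaged in CEM T cells. The RC index is the frequency of a change after passage round 2 divided by its frequency in the plasmid library.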

Values are the RC index; higher means better tolerated. The authors read about 0.1 or less as lethal, 0.1-0.2 as attenuated and 0.2 or more as tolerated.
A change reads original residue, position, new residue.
Base changes are numbered along pNL4-3.

| # | change | base | other frame | replication capacity index |
|---|---|---|---|---|
| 1 | S118F | C5393T | none | 0.237 |
| 2 | G60E | G5219A | none | 0.209 |
| 3 | Q97R | A5330G | none | 0.0462 |
| 4 | I87T | T5300C | none | 0.0853 |
| 5 | V10A | T5069C | integrase silent | 0.155 |
| 6 | H43Q | C5169A | none | 0.0253 |
| 7 | G71S | G5251A | none | 0.111 |
| 8 | M16I | G5088A | integrase E287K | 0.631 |
| 9 | A149E | C5486A | none | 0.0811 |
| 10 | H73L | A5258T | none | 0.0251 |
| 11 | V7G | T5060G | integrase silent | 0.118 |
| 12 | N190K | T5610G | Vpr W18G | 0.200 |
| 13 | M29I | G5127A | none | 0.0822 |
| 14 | M189I | G5607C | Vpr E17Q | 0.522 |
| 15 | E117V | A5390T | none | 0.0302 |
| 16 | H108L | A5363T | none | 0.0399 |
| 17 | A149G | C5486G | none | 0.0333 |
| 18 | I124K | T5411A | none | 0.0385 |
| 19 | W38C | G5154C | none | 0.116 |
| 20 | N190I | A5609T | Vpr E17D | 0.0350 |
| 21 | S46T | G5177C | none | 0.0843 |
| 22 | D14G | A5081G | integrase silent | 0.0642 |
| 23 | E117D | A5391T | none | 0.0129 |
| 24 | G191R | G5611C | Vpr W18S | 0.0438 |
| 25 | K34R | A5141G | none | 0.0573 |
| 26 | F115L | T5385G | none | 0.0377 |
| 27 | L102I | C5344A | none | 0.125 |
| 28 | A119T | G5395A | none | 0.277 |
| 29 | G71D | G5252A | none | 0.0784 |
| 30 | R173G | A5557G | none | 0.104 |
| 31 | N19D | A5095G | none | 0.669 |
| 32 | W11R | T5071A | integrase V281E | 0.0650 |
| 33 | V7A | T5060C | integrase silent | 0.0822 |
| 34 | Q83L | A5288T | none | 0.0214 |
| 35 | R17K | G5090A | integrase silent | 0.190 |
| 36 | K63R | A5228G | none | 0.0428 |
| 37 | N190Y | A5608T | Vpr E17V | 0.0332 |
| 38 | C133S | T5437A | none | 0.0240 |
| 39 | M29K | T5126A | none | 0.385 |
| 40 | I159T | T5516C | none | 0.100 |
| 41 | R23S | A5109T | none | 0.0348 |
| 42 | G75R | G5263C | none | 0.0409 |
| 43 | I57N | T5210A | none | 0.0276 |
| 44 | V98L | G5332C | none | 0.135 |
| 45 | Y69H | T5245C | none | 0.165 |
| 46 | P100H | C5339A | none | 0.224 |
| 47 | I66M | A5238G | none | 0.0321 |
| 48 | L59Q | T5216A | none | 0.0322 |
| 49 | V142A | T5465C | none | 0.0772 |
| 50 | L125I | T5413A | none | 0.101 |
| 51 | S53L | C5198T | none | 1.14 |
| 52 | K22I | A5105T | none | 0.0377 |
| 53 | K91N | A5313T | none | 0.0210 |
| 54 | W79R | T5275C | none | 0.0795 |
| 55 | R121G | A5401G | none | 0.0120 |
| 56 | L106I | C5356A | none | 0.108 |
| 57 | I128K | T5423A | none | 0.0541 |
| 58 | N3Y | A5047T | integrase K273I | 0.0531 |
| 59 | Q105H | A5355C | none | 0.0389 |
| 60 | L109P | T5366C | none | 0.0358 |
| 61 | C114Y | G5381A | none | 0.142 |
| 62 | Q12P | A5075C | integrase silent | 0.0556 |
| 63 | L163S | T5528C | none | 0.0407 |
| 64 | T47S | A5179T | none | 0.0421 |
| 65 | I124M | A5412G | none | 0.0234 |
| 66 | N140I | A5459T | none | 0.0253 |
| 67 | Q158K | C5512A | none | 0.144 |
| 68 | T47I | C5180T | none | 0.0923 |
| 69 | I66K | T5237A | none | 0.0678 |
| 70 | Y40H | T5158C | none | 0.0604 |
| 71 | L24V | T5110G | none | 0.160 |
| 72 | E88D | A5304T | none | 0.0546 |
| 73 | L169V | C5545G | none | 0.0900 |

The last 5 entries again:

{"change": "I66K", "base": "T5237A", "other frame": "none", "replication capacity index": 0.0678}
{"change": "Y40H", "base": "T5158C", "other frame": "none", "replication capacity index": 0.0604}
{"change": "L24V", "base": "T5110G", "other frame": "none", "replication capacity index": 0.160}
{"change": "E88D", "base": "A5304T", "other frame": "none", "replication capacity index": 0.0546}
{"change": "L169V", "base": "C5545G", "other frame": "none", "replication capacity index": 0.0900}

The authors read an index above 1 as above wild type (1.9% of all changes in the genome).
Since each clone held several changes (about five per kb), neutral changes can read low.